Reference: PubChem BioAssay AID1259414 (Drosophila RNAi Screening Center, 2018)
Test: 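Genome-wide screen for host control of endosymbiont load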 (primary screen). Cells: Drosophila JW18 cells infected with Wolbachia. Reagent: long dsRNA against Drosophila genes, 0.25 µg dsRNA per well of a 384-well plate. Timing: 5 days. Treatment: cells persistently infected with Wolbachia before knock-down; no added drug. Measured: 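Imaged fluorescence in situ signal for Wolbachia 23S rRNA per DAPI-counted host cell, given as a robust z-score within each plate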. Direction: Wolbachia per cell robust z: higher = more Wolbachia per host cell than the plate typical. Hit rule: 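Hit when robust z is 1.5 or more, or -1.5 or less, in at least two of three replicates; excludes dsRNAs with several or no targets, genes not expressed in JW18 and well A1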.
In all, the deposit lists about 24,000 reagents; shown is an unselected part of those that have a named target and a result. Over the whole deposit, about 1,210 (5%) are marked active. 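Inactive calls also include excluded dsRNAs with several or no targets, genes unexpressed in JW18, and well A1, regardless of score.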 A plus sign joins genes that one reagent is predicted to hit.

target | amplicon | Wolbachia per cell robust z, rep 1 | Wolbachia per cell robust z, rep 2 | Wolbachia per cell robust z, rep 3 | Call
CG1724 | DRSC20548 | -5.35 | -0.426 | -0.326 | inactive
CG1724 | DRSC25668 | 0.344 | 0.0927 | 0.38 | inactive
nAChRalpha3 (nicotinic Acetylcholine Receptor alpha3) | DRSC18800 | 0.107 | 0.147 | -0.924 | inactive
nAChRalpha3 (nicotinic Acetylcholine Receptor alpha3) | DRSC25751 | -1.92 | -0.216 | 0.227 | inactive
bin (biniou) | DRSC10332 | -9.7 | -1.46 | -0.0988 | inactive
bin (biniou) | DRSC29845 | -7.35 | -1.31 | -6.73 | inactive
Pmm2 (Phosphomannomutase type 2) | DRSC09780 | 0.587 | 0.00231 | 0.153 | inactive
Pmm2 (Phosphomannomutase type 2) | DRSC28987 | 0.0648 | -0.291 | -0.588 | inactive
ckn (caskin) | DRSC06149 | -6.8 | -1.83 | -8.99 | active
CG6709 + Hez | DRSC10698 | -2.72 | -0.115 | -0.511 | inactive
Ir8a (Ionotropic receptor 8a) | DRSC17817 | -2.01 | 0.448 | -1.33 | inactive
Ir8a (Ionotropic receptor 8a) | DRSC17869 | -0.517 | -0.409 | -0.155 | inactive
CG33462 | DRSC22902 | -1.13 | 0.529 | -1.65 | inactive
azot (ahuizotl) | DRSC06051 | 0.992 | -0.567 | -0.352 | inactive
azot (ahuizotl) | DRSC25443 | -1.69 | -3.75 | -1.57 | inactive
CG34309 | DRSC14838 | -0.193 | 0.078 | 0.535 | inactive
Cyp6a13 (Cytochrome P450 6a13) | DRSC07375 | 0.743 | -0.231 | -0.311 | inactive
Lztr1 (Leucine zipper like transcription regulator 1) | DRSC18176 | -1.62 | 1.4 | -0.0787 | inactive
Lztr1 (Leucine zipper like transcription regulator 1) | DRSC18647 | 0.201 | 0.107 | 0.454 | inactive
Lztr1 (Leucine zipper like transcription regulator 1) | DRSC26706 | -1.29 | -1.64 | -1.23 | inactive
IntS4 (Integrator 4) | DRSC17810 | 4.14 | 0.803 | 0.342 | inactive
Ugt35E1 (UDP-glycosyltransferase family 35 member E1) | DRSC15193 | -0.0431 | 0.285 | 0.783 | inactive
Ugt35E1 (UDP-glycosyltransferase family 35 member E1) | DRSC27215 | -0.207 | -2.04 | -1.32 | inactive
CG5577 | DRSC10519 | 0.118 | 0.314 | 1.11 | inactive
CG5577 | DRSC41367 | -0.557 | -0.195 | 0.287 | inactive
Ttc1 (Tetratricopeptide repeat domain 1) | DRSC15016 | 0.589 | -0.291 | -0.0591 | inactive
Ttc1 (Tetratricopeptide repeat domain 1) | DRSC22469 | -2.56 | 0.152 | 0.465 | inactive
Ttc1 (Tetratricopeptide repeat domain 1) | DRSC26111 | -1.25 | 0.342 | 0.0293 | inactive

Part of the list above, limited to “Wolbachia per cell robust z, rep 1”.
Ugt35E1 (UDP-glycosyltransferase family 35 member E1) [DRSC27215]: -0.207
CG5577 [DRSC10519]: 0.118
CG5577 [DRSC41367]: -0.557
Ttc1 (Tetratricopeptide repeat domain 1) [DRSC15016]: 0.589
